A mixed list of measured activities; the numbers were collected in NIAID ChemDB.

Shared fields: toxicity to cultured cells; cells: KB; endpoint: CC50

CCn is the concentration with n% toxicity to the cells. Blank or dashed fields: not listed here. Conditions beyond the fields shown may differ between rows.

structure,read by,value
CC(=O)Oc1ccc(/C=C/C(=O)Oc2c(-c3ccc(Cl)c(Cl)c3)oc3ccccc3c2=O)cc1OC(C)=O,-,20 µM
COc1cc(-c2ccccc2)c(O)c(OC)c1O,sulforhodamine / absorbance,>50 µM
C[C@@H]1CCC23[C@H]1CC[C@@]2(C)C[C@@](C)(O)[C@H]3C,-,10.4 µg/mL
CC(=O)OC(C1CC(C)C(=O)O1)C(C)C1C2C3(O)OC4(CCC12C)C(=CCC1C(C)(C)OC2CC(=O)OC21C4O)C3=O,MTT,4.83 µg/mL
c1cc2c(cnc3c4cc5c(cc4ccc23)OCO5)c2c1OCO2,sulforhodamine,>0.32 µg/mL
O=C(/C=C/c1ccc(O)c(O)c1)Oc1c(-c2ccc(Cl)cc2)oc2ccccc2c1=O,-,3.7 µM
CC(C)(O)c1ccc2c(c1)CC[C@H]1[C@](C)(C(=O)O)CCC[C@]21C,absorbance,29.78 µg/mL
O=C(/C=C/c1ccc(O)c(O)c1)Oc1c(-c2ccc(Cl)c(Cl)c2)oc2ccccc2c1=O,-,6 µM
OCCc1ccc(O[C@@H]2O[C@H](CO)[C@@H](O)[C@H](O)[C@H]2O)c(O)c1,MTT,15.05 µM
O=c1[nH]c(=O)n([C@H]2C[C@H](O)[C@@H](CO)O2)c[c]1[Hg+].OCC(O)C[S-],trypan blue,53.8 µg/mL
CC(C)(O)[C@H]1CC[C@]2(C)[C@H]3CC[C@@H]4[C@@]5(C)CCCC(C)(C)[C@@H]5[C@@H](O)C[C@@]4(C)[C@]3(C)CC[C@@H]12,-,>20 µg/mL
CC(C)CNC(=O)[C@@H](N)Cc1ccc(OP2(=O)CO[C@@H](Cn3cnc4c(N)ncnc43)CO2)cc1,absorbance,>100 µM
COc1ccc(-c2cc(OC)c(O)c(OC)c2O)cc1,sulforhodamine / absorbance,41.94 µM
O=C(CO)CCC(=O)OCCc1ccc2c(c1)OCO2,MTT,3.85 µM
CC1(C)[C@@H](Br)CC[C@]2(C)O[C@H]3COC(=O)C3=CC[C@@H]12,-,7.2 µg/mL
O=c1[nH]c(=O)n([C@H]2C[C@H](O)[C@@H](CO)O2)c[c]1[Hg+],trypan blue,4.2 µg/mL
COc1cccc2c1C(=O)c1c(O)c3c(c(O)c1C2=O)C[C@@](O)(C(=O)CO)C[C@@H]3O[C@H]1C[C@H](N)[C@H](O)[C@H](C)O1,sulforhodamine,0.56 µg/mL
COc1cc(C(=O)Oc2c(-c3ccc(Cl)cc3)oc3ccccc3c2=O)ccc1OC(C)=O,-,10.4 µM
CC(C)(O)C1=CC[C@@]2(C)C[C@@H]3O[C@]3(C)CC[C@@H]3O[C@@]3(C)CC[C@H]12,-,>20 µg/mL
O=C1c2c(O)cc(O)cc2O[C@@H](c2ccc(O)cc2)[C@@H]1c1c(O)cc(O)c2c(=O)cc(-c3ccc(O)c(O)c3)oc12,sulforhodamine / absorbance,>50 µM
CN1CCc2cc3c(cc2C(=O)Cc2ccc4c(c2C1)OCO4)OCO3,sulforhodamine,>3.5 µg/mL
COc1cc(/C=C/C(=O)O[C@H]2[C@H](O)[C@@H](OC3OCC(O)(CO)C3O)[C@H](OCCc3ccc(O)cc3)O[C@@H]2CO)ccc1O,MTT,7.69 µM
CC(C)=CC[C@H]1C[C@@]2(C[C@H]3CCC(C)(C)C=C3C)C(=O)[C@](C(=O)c3ccccc3)(C(=O)C3=C2OC(C)(C)C=C3)C1(C)C,sulforhodamine / absorbance,>50 µM
COc1cc(C(=O)Oc2c(-c3ccc(Cl)cc3)oc3ccccc3c2=O)ccc1O,-,20 µM
[C-]#[N+][C@@]1(C)CC[C@H]2[C@H]3[C@H]4C(=CC(C)(C)C[C@@H]4C[C@@H]2C)CC[C@@H]31,-,14.5 µg/mL
C[C@@H]1O[C@@H](O[C@@H]2[C@@H](O)[C@H](OCCc3ccc(O)c(O)c3)O[C@H](CO)[C@H]2OC(=O)/C=C/c2ccc(O)c(O)c2)[C@H](O)[C@H](O)[C@H]1O,MTT,9.41 µM
COc1cc(-c2ccccc2)c(OC)c(OC)c1O,sulforhodamine / absorbance,>50 µM
O=c1[nH]c(=O)n([C@H]2C[C@H](O)[C@@H](CO)O2)c[c]1[Hg+].OCC[S-],trypan blue,18.9 µg/mL

Again, the opening 3 rows:

structure	read by	value
CC(=O)Oc1ccc(/C=C/C(=O)Oc2c(-c3ccc(Cl)c(Cl)c3)oc3ccccc3c2=O)cc1OC(C)=O	-	20 µM
COc1cc(-c2ccccc2)c(O)c(OC)c1O	sulforhodamine / absorbance	>50 µM
C[C@@H]1CCC23[C@H]1CC[C@@]2(C)C[C@@](C)(O)[C@H]3C	-	10.4 µg/mL